This test concerns the target COVID-2019-Spike-328-585 (RBD) (SARS-CoV-2). Description: BLI; […] (HIS1K) […] (50 μM, 31 μM, and 8.8 μM); 30°C, PBS; 1:1 binding model; Octet HTX. To be noted: both partners purified.

B1: human CLEC2.Fc fusion protein (Fc fusion)
chain: SVMQRNYLQGENENRTGTLQQLAKRFCQYVVKQSELKGTFKGHKCSPCDTNWRYYGDSCYGFFRHNLTWEESKQYCTDMNATLLKIDNRNIVEYIKARTHLIRWVGLSRQKSNEVWKWEDGSVISENMFEFLEDGKGNMNCAYFHNGKMHPTFCENKHYLMCERKAGMTKVDQLP
notes: also called hCLEC2.Fc; source: 293T cells, transfected
Turning to B1, binding was characterised by a dissociation constant (Kd) of 7.92 µM.

Source of the values: PMC10331576, “Inhibition of SARS‐CoV‐2‐mediated thromboinflammation by CLEC2.Fc” (EMBO Molecular Medicine, 2023).
